Test system: MT2
Assay: Selectivity index, ratio of CC50 for MT2 cells to EC50 for HIV1 LAI
Assay type: functional

With `CC(C)CN(C[C@@H](O)[C@H](Cc1ccccc1)NC(=O)O[C@H]1CCOC1)S(=O)(=O)c1ccc(N)cc1` the Ratio CC50/EC50 was > 2780.
